Measured values from several laboratories, pooled; numbers as filed in NIAID ChemDB.

Common to all: tests in culture

Conditions beyond the fields shown may differ between rows. Inhibition is in % at the dose shown (toxicity tests: loss of growth or viability). ECn is the concentration giving n% inhibition of infection, replication or growth. MIC50, MIC90 and the like: level of inhibition, or share of isolates inhibited. Blank or dashed fields: not listed here.

| smiles | organism | strain or isolate | changes | cells | read by | endpoint | tested at | value |
|---|---|---|---|---|---|---|---|---|
| CCO/N=C/c1ccc(OCCC2CCN(c3ccc(C)nn3)CC2)cc1 | Rhinovirus | 5146 (ICAM-1 receptor group 24) | - | KB | neutral red | EC50 | - | 0.016 µM |
| Nc1ncnc2c1ncn2C[C@@H](CO)OCP(=O)(O)O | Adenovirus | TAK (TYPE 41) | - | - | virus yield | EC90 | - | 7 µg/mL |
| C#CC[C@@H](C(=O)N[C@H](/C=C/C(=O)OCC)C[C@@H]1CCNC1=O)n1cccc(NC(=O)c2cc(C)on2)c1=O | Rhinovirus | Serotype 89 | - | H1-HELA | cytopathic effect / XTT | inhibition | 0.035 µM | 90% |
| Cc1c(CN(C)c2cccc3c2CCCC3)cnc2nc(N)nc(N)c12 | Encephalitozoon intestinalis | - | - | RK-13 | - | inhibition | 0.01 µg/mL | 21.3% |
| CC(C)=CCN1c2cc(Cl)cc3[nH]c(=S)n(c23)C[C@@H]1C | HIV-1 | - | RT-K70R K101E | MT-4 | - | EC95 | - | 1.5 µM |
| COc1cc(Cc2cnc(N)nc2N)cc(OC)c1OCCCNc1ccc(S(=O)(=O)c2ccc(N)cc2)cc1 | Mycobacterium ulcerans | Isolate 94-539 | - | - | - | MIC | - | 2 µg/mL |
| O=C(Nc1ncc([N+](=O)[O-])s1)c1ccccc1O | Vittaforma corneae | - | - | RK-13 | - | inhibition | 0.001 µg/mL | 31.7% |
| CC(=O)N1CCN(c2ccc(OC[C@H]3CO[C@](Cn4ccnc4)(c4ccc(Cl)cc4Cl)O3)cc2)CC1 | Candida albicans | Isogenic isolate 11 (25X) | - | - | - | MIC | - | ≤0.008 µg/mL |
| Cc1ncc([N+](=O)[O-])n1CCO | Encephalitozoon intestinalis | - | - | RK-13 | - | inhibition | 0.01 µg/mL | 13.4% |
| Nc1ccnc2c1ncn2[C@H]1C=C[C@@H](OCP(=O)(O)O)O1 | Adenovirus | Chicago (type 1) | - | - | cytopathic effect | EC50 | - | 180 µg/mL |
| CC1(C)[C@@H](O[C@H]2O[C@H](C(=O)O)[C@@H](O)[C@H](O)[C@H]2O[C@@H]2O[C@H](C(=O)O)[C@@H](O)[C@H](O)[C@H]2O)CC[C@]2(C)[C@H]3C(=O)C=C4[C@@H]5C[C@@](C)(C(=O)O)CC[C@]5(C)CC[C@@]4(C)[C@]3(C)CC[C@@H]12 | Dengue virus | TYPE 2 (NGC) | - | VERO | cytopathic effect | EC50 | - | 174.2 µg/mL |
| CCOC(=O)Nc1cc2[nH]c(-c3ccccc3)nc2c(N)n1 | Encephalitozoon intestinalis | - | - | RK-13 | - | inhibition | 1 µg/mL | 79.4% |
| COc1cc(C[C@H](C)[C@H](C)Cc2ccc(O)c(O)c2)ccc1O | Candida albicans | ATCC 10231 | - | - | broth dilution | MIC50 | - | 31.25 µg/mL |
| COc1cc(Cc2cnc(N)nc2N)cc(OC)c1OC | Mycobacterium ulcerans | ATCC 35840 | - | - | - | MBC | - | >32 µg/mL |
| CC(=O)Oc1ccccc1C(=O)Nc1ncc([N+](=O)[O-])s1 | Encephalitozoon intestinalis | - | - | RK-13 | - | inhibition | 0.1 µg/mL | 48.5% |
| Nc1ccn(C[C@@H](CO)OCP(=O)(O)O)c(=O)n1 | Adenovirus | Chicago (type 1) | - | - | virus yield | EC90 | - | 20 µg/mL |

2 of the rows above, restated:

smiles	organism	strain or isolate	changes	cells	read by	endpoint	tested at	value
Nc1ccnc2c1ncn2[C@H]1C=C[C@@H](OCP(=O)(O)O)O1	Adenovirus	Chicago (type 1)	-	-	cytopathic effect	EC50	-	180 µg/mL
Nc1ncnc2c1ncn2C[C@@H](CO)OCP(=O)(O)O	Adenovirus	TAK (TYPE 41)	-	-	virus yield	EC90	-	7 µg/mL